Pooled drug test results. Numbers come from NIAID ChemDB, via PubChem.

Shared fields: cytotoxicity tests; cell line: C8166; method: MTT; endpoint: CC50

CCn: concentration that lowers growth or viability of the cells by n%.

{"SMILES": "Cc1ccccc1Sc1c(C(=O)NCCO)[nH]c2ccc(Cl)cc12", "value": ">100 µM"}
{"SMILES": "CC1(C)C=Cc2c(cc(O)c3c2O[C@H](c2ccc(O)cc2)CC3=O)O1", "value": "210.8 µM"}
{"SMILES": "CCCCC/C(=N\\NC(=O)c1ccccc1)c1cn(S(=O)(=O)c2ccccc2)c2ccccc12", "value": ">200 µg/mL"}
{"SMILES": "CC1(C)CC[C@]2(C(=O)O)CC[C@]3(C)C(=CCC4[C@@]5(C)CCC(=O)C(C)(C)C5[C@H](O)C[C@]43C)C2C1", "value": "155 µM"}
{"SMILES": "Cc1cccc2c1cc1n2-c2ccccc2NC1(C)c1ccccc1", "value": "37.96 µg/mL"}
{"SMILES": "CCCCCCCCC(=O)O[C@@]12[C@H](OC(=O)/C=C/c3ccccc3)[C@@H](C)[C@@]3(O)[C@@H](C=C(CO)C[C@]4(O)C(=O)C(C)=C[C@@H]34)[C@@H]1C2(C)C", "value": "17.1 µM"}
{"SMILES": "CN(Cc1nc2ccccc2o1)Cc1ncccc1CCC#N", "value": ">10 µM"}
{"SMILES": "COc1ccc(COc2ccccc2)cc1", "value": "152 µg/mL"}
{"SMILES": "Cc1cc(C)cc(Sc2c(C(=O)NNCCO)[nH]c3ccc(Cl)cc23)c1", "value": ">100 µM"}
{"SMILES": "Cc1c2n(c3ccccc13)-c1ccccc1NC2c1ccco1", "value": "182 µg/mL"}
{"SMILES": "Cc1ccc(Sc2c(C(=O)NNCCO)[nH]c3ccc(Cl)cc23)c(C)c1", "value": ">100 µM"}
{"SMILES": "CCCCCCCCC(=O)O[C@@]12[C@H](OC(=O)CCCCCC3SCC4NC(=O)NC43)[C@@H](C)[C@@]3(O)[C@@H](C=C(CO)C[C@]4(O)C(=O)C(C)=C[C@@H]34)[C@@H]1C2(C)C", "value": "129 µM"}
{"SMILES": "O=S(=O)(Oc1ccc(N=Nc2ccc(N=Nc3ccc(OS(=O)(=O)c4ccc(Br)cc4)c4ncccc34)cc2)c2cccnc12)c1ccc(Br)cc1", "value": "102 µg/mL"}
{"SMILES": "CN1CCN(c2ccnc3nc(CN(CCCCN)Cc4ncc(Cl)cc4Cl)[nH]c23)CC1", "value": ">10 µM"}
{"SMILES": "COc1cc(C(OC(=O)c2ccc3c(c2)OCO3)[C@H](C)C(C)O)cc(O)c1OC", "value": "186.5 µg/mL"}
{"SMILES": "Cc1cc(C)cc(S(=O)(=O)c2c(C(=O)NCC(=O)NN)[nH]c3ccc(Cl)cc23)c1", "value": "≥200 µM"}
{"SMILES": "Cc1cn([C@H]2C[C@H](N=[N+]=[N-])[C@@H](CO)O2)c(=O)[nH]c1=O", "value": "1.32 µM"}
{"SMILES": "O=C(c1cc2c([nH]c3ccccc32)c(-c2cccs2)n1)N1CCC(Cc2ccccc2)CC1", "value": ">400 µM"}
{"SMILES": "Cc1cccnc1CN(Cc1nc2nccc(N3CCN(C)CC3)c2[nH]1)Cc1ncccc1C", "value": "1.8 µM"}
{"SMILES": "Cc1ccccc1S(=O)(=O)c1c(C(=O)NNCCO)[nH]c2ccc(Cl)cc12", "value": ">100 µM"}
{"SMILES": "COc1cc2c(c(O)c1OC)-c1c(cc3c(c1O)OCO3)C[C@H](C)[C@H](C)C2", "value": "34.28 µg/mL"}
{"SMILES": "COc1cc(OC)c2oc(=O)ccc2c1", "value": ">970.9 µM"}
{"SMILES": "Cc1cccnc1CN(CCCCN)Cc1nc2nccc(N3CCN(C)CC3)c2[nH]1", "value": ">10 µM"}
{"SMILES": "CC1(C)C=C2C3CCC4[C@@]5(C)CCC(=O)C(C)(C)C5[C@H](O)C[C@@]4(C)[C@]3(C)CC[C@@]2(C(=O)O)CC1", "value": "62.09 µM"}
{"SMILES": "COc1cc2c(c(O)c1OC)-c1c(cc(OC(C)=O)c(OC)c1O)C[C@@H](C)[C@@H](C)C2", "value": "32.04 µg/mL"}
{"SMILES": "O=C(c1cc2c([nH]c3ccccc32)c(-c2cccs2)n1)N1CCN(c2ccccc2)CC1", "value": ">400 µM"}
{"SMILES": "CC1(C)Oc2cc(O)c3c(=O)cc(-c4ccc(O)cc4)oc3c2C(O)C1O", "value": "387.1 µM"}
{"SMILES": "Cc1cccc(S(=O)(=O)c2c(C(=O)NCCO)[nH]c3ccc(Cl)cc23)c1", "value": ">100 µM"}
{"SMILES": "COc1ccc(C2Nc3ccccc3-n3c2cc2c(C)cccc23)cc1", "value": "154 µg/mL"}
{"SMILES": "COc1cc([C@H]2OC[C@H]3[C@@H]2CO[C@H]3c2cc(OC)c(O)c(OC)c2)cc(OC)c1O", "value": ">200 µg/mL"}
{"SMILES": "CC1=C[C@H]2[C@@]3(O)[C@H](C)[C@@H](O)[C@]4(OC(=O)CCc5ccccc5)[C@H]([C@@H]3C=C(CO)C[C@]2(O)C1=O)C4(C)C", "value": ">200 µM"}
{"SMILES": "Cc1cn([C@H]2C[C@H](N=[N+]=[N-])[C@@H](CO)O2)c(=O)[nH]c1=O", "value": ">400 µM"}
{"SMILES": "CC1=C[C@@H]([C@H]2Oc3cc4c(c5c3[C@H](CC5)[C@@H]2C)CC[C@H]2C(C)(C)O[C@@H]3CC(=O)O[C@@]32C4)OC1=O", "value": "~160 µg/mL"}
{"SMILES": "CCN1C(=O)NC(=O)C(C(C)C)C1CC1CC(C)CC(C#N)C1=O", "value": "811 µM"}
{"SMILES": "O=S(=O)(Oc1ccc(N=Nc2ccc(N=Nc3ccc(OS(=O)(=O)c4ccc(Cl)cc4)c4ncccc34)cc2)c2cccnc12)c1ccc(Cl)cc1", "value": "98.31 µg/mL"}
{"SMILES": "Cc1cc(C)cc(S(=O)(=O)c2c(C(=O)NCCO)[nH]c3ccc(Cl)cc23)c1", "value": ">100 µM"}
{"SMILES": "Cc1ccc(S(=O)(=O)n2cc(/C=N/NC(=O)c3ccccc3)c3ccc(C)cc32)cc1", "value": "41.74 µg/mL"}
{"SMILES": "COC(C)(C)/C=C/C[C@](C)(O)C1[C@H](O)C[C@@]2(C)[C@@H]3CC=C4[C@@H](C[C@H](O)[C@@H](O)C4(C)C)[C@]3(C)C(=O)C[C@]12C", "value": "559.9 µM"}
{"SMILES": "C=C(C)OCC12O[C@@]3([C@@H]1OC(C)=O)[C@@H](OC(C)=O)[C@@H](C)C[C@H]3[C@]1(O)[C@H]([C@@H](OC(C)=O)[C@](O)(C(=C)C)[C@@H](OCc3ccccc3)[C@H]1C)[C@@H]2OC(C)=O", "value": ">0.24 µM"}
{"SMILES": "CN1CCN(c2ccnc3nc(CN(CCCCN)Cc4ncccc4/C=C/C#N)[nH]c23)CC1", "value": ">10 µM"}
{"SMILES": "Cc1cccc2c1cc1n2-c2ccccc2NC1c1ccc(N(C)C)cc1", "value": "120 µg/mL"}
{"SMILES": "O=C(c1cc2c([nH]c3ccccc32)c(-c2cccs2)n1)N1CCC(c2ccncc2)CC1", "value": ">400 µM"}
{"SMILES": "COc1cc([C@H]2OC[C@@H]3[C@H]2CO[C@@H]3c2cc(OC)c(O)c(OC)c2)cc(OC)c1O", "value": ">200 µg/mL"}
{"SMILES": "COc1ccc([C@]2(OC)O[C@@H](c3cc(OC)c(OC)c(OC)c3)[C@@]3(C)O[C@@]23C)cc1OC", "value": "96.1 µg/mL"}
{"SMILES": "CO[C@H]1C=C2C(C[C@H](O)[C@@H](O)C2(C)C)[C@]2(C)C(=O)C[C@]3(C)C([C@@](C)(O)C(=O)CCC(C)(C)OC(C)=O)[C@H](O)C[C@@]3(C)[C@H]12", "value": "216.7 µM"}
{"SMILES": "CC(=O)OCC1=C[C@H]2[C@@H]3C(C)(C)[C@]3(OC(C)=O)[C@H](OC(=O)/C=C/c3ccc4c(c3)OCO4)[C@@H](C)[C@]2(O)[C@@H]2C=C(C)C(=O)[C@@]2(O)C1", "value": ">200 µM"}
{"SMILES": "O=C(NNCCO)c1[nH]c2ccc(Cl)cc2c1Sc1ccccc1", "value": ">100 µM"}
{"SMILES": "CC1=C[C@H]2[C@@]3(O)[C@H](C)[C@@H](O)[C@]4(OC(=O)/C=C/c5ccccc5)[C@H]([C@@H]3C=C(CO)C[C@]2(O)C1=O)C4(C)C", "value": ">200 µM"}
{"SMILES": "COc1c(OC(C)=O)cc2c(c1O)-c1c(cc(O)c(OC)c1OC)C[C@@H](C)[C@@H](C)C2", "value": ">200 µg/mL"}
{"SMILES": "CC(C)(C)c1ccc(OCc2ccccc2)cc1", "value": "118 µg/mL"}
{"SMILES": "CCCCCCCCCCCCCCCCCCOC(=O)/C=C/c1ccc(O)c(O)c1", "value": "86.14 µg/mL"}
{"SMILES": "COc1ccc(C(=O)OC(c2cc(OC)c(OC)c(OC)c2)[C@H](C)C(C)O)cc1OC", "value": "91.8 µg/mL"}
{"SMILES": "CC1=C[C@H]2[C@@]3(O)[C@H](C)[C@@H](OC(=O)CCc4ccccc4)[C@]4(OC(=O)CCc5ccccc5)[C@H]([C@@H]3C=C(CO)C[C@]2(O)C1=O)C4(C)C", "value": "26.34 µM"}
{"SMILES": "C/C=C/c1ccc2oc(-c3ccc(O)c(OC)c3)c(C)c2c1", "value": "92.9 µM"}
{"SMILES": "Cc1cccc2c1cc1n2-c2ccccc2NC1c1ccc([N+](=O)[O-])cc1", "value": ">200 µg/mL"}
{"SMILES": "COc1cc(C2OC[C@@H]3[C@@H](c4cc(OC)c(O)c(OC)c4)OC[C@H]23)cc(OC)c1O", "value": "346.9 µM"}
{"SMILES": "O=C(O)c1cc2c([nH]c3ccccc32)c(-c2ccc(CO)o2)n1", "value": "28.71 µM"}
{"SMILES": "Cc1c2n(c3ccccc13)-c1ccccc1NC2c1ccc(O)cc1", "value": "68.59 µg/mL"}
{"SMILES": "Clc1ccccc1OCc1ccccc1", "value": "109 µg/mL"}
{"SMILES": "COc1cc([C@H]2OC[C@H]3[C@@H]2CO[C@@H]3c2ccc(O)c(OC)c2)ccc1O", "value": ">200 µg/mL"}
{"SMILES": "C/C(=N\\NC(=O)c1ccccc1)c1cn(S(=O)(=O)c2ccc(C)cc2)c2cc(C)ccc12", "value": ">200 µg/mL"}
{"SMILES": "Oc1ccc(N=Nc2ccc(N=Nc3ccc(O)c4ncccc34)cc2)c2cccnc12", "value": "8.51 µg/mL"}
{"SMILES": "C=C(C)[C@@]1(O)[C@@H]2OC3(c4ccccc4)O[C@H]1[C@@H](C)[C@@]1(O3)[C@H]2[C@H](OC(C)=O)[C@@]2(C)O[C@@]3([C@@H]2OCc2ccccc2)[C@@H](OC(C)=O)[C@@H](C)C[C@@]13C", "value": ">0.2967 µM"}
{"SMILES": "CC(C)=CCC/C(C)=C/CC/C(C)=C/CC/C(C)=C/Cc1cc(O)cc2c1OC(=O)C2=C(C)C", "value": "68.69 µM"}
{"SMILES": "CN1CCN(c2ccnc3nc(CN(CCCCN)Cc4c(F)cccc4F)[nH]c23)CC1", "value": ">10 µM"}
{"SMILES": "O=S(=O)(Oc1ccc(N=Nc2ccc(N=Nc3ccc(OS(=O)(=O)c4ccccc4)c4ncccc34)cc2)c2cccnc12)c1ccccc1", "value": "47.56 µg/mL"}
{"SMILES": "CC(C)=CCC/C(C)=C/CC/C(C)=C/CC/C(C)=C/Cc1cc(O)cc2c1OC(=O)C2", "value": "12.13 µM"}
{"SMILES": "CC(=O)O[C@@]12[C@H](OC(=O)/C=C/c3ccc(Cl)cc3)[C@@H](C)[C@@]3(O)[C@@H](C=C(CO)C[C@]4(O)C(=O)C(C)=C[C@@H]34)[C@@H]1C2(C)C", "value": "23.17 µM"}
{"SMILES": "CC(=O)O[C@@H]1C[C@@]2(C)C3CC=C4[C@@H](C[C@H](O)[C@@H](O)C4(C)C)[C@]3(C)C(=O)C[C@]2(C)C1C(C)(O)C(=O)/C=C/C(C)(C)OC(C)=O", "value": "232.5 µM"}
{"SMILES": "COc1cc([C@@H]2c3cc(O)c(OC)cc3C(=O)[C@@H](C)[C@H]2C)ccc1O", "value": "87.1 µg/mL"}
{"SMILES": "COc1ccc(S(=O)(=O)n2cc(/C(C)=N/NC(=O)c3ccccc3)c3ccc(C)cc32)cc1", "value": ">200 µg/mL"}

Again, the opening 9 rows:

SMILES	value
Cc1ccccc1Sc1c(C(=O)NCCO)[nH]c2ccc(Cl)cc12	>100 µM
CC1(C)C=Cc2c(cc(O)c3c2O[C@H](c2ccc(O)cc2)CC3=O)O1	210.8 µM
CCCCC/C(=N\NC(=O)c1ccccc1)c1cn(S(=O)(=O)c2ccccc2)c2ccccc12	>200 µg/mL
CC1(C)CC[C@]2(C(=O)O)CC[C@]3(C)C(=CCC4[C@@]5(C)CCC(=O)C(C)(C)C5[C@H](O)C[C@]43C)C2C1	155 µM
Cc1cccc2c1cc1n2-c2ccccc2NC1(C)c1ccccc1	37.96 µg/mL
CCCCCCCCC(=O)O[C@@]12[C@H](OC(=O)/C=C/c3ccccc3)[C@@H](C)[C@@]3(O)[C@@H](C=C(CO)C[C@]4(O)C(=O)C(C)=C[C@@H]34)[C@@H]1C2(C)C	17.1 µM
CN(Cc1nc2ccccc2o1)Cc1ncccc1CCC#N	>10 µM
COc1ccc(COc2ccccc2)cc1	152 µg/mL
Cc1cc(C)cc(Sc2c(C(=O)NNCCO)[nH]c3ccc(Cl)cc23)c1	>100 µM

Lines come from different laboratories, so protocols vary.